# Assay results: patent US20220033460A1, “IDENTIFICATION AND USE OF T CELL EPITOPES IN DESIGNING DIAGNOSTIC AND THERAPEUTIC APPROACHES FOR COVID-19” (priority 2020, published 2022)
# Substitutions are numbered along the chain they refer to.
# B1: TCR_105: TCR to … / A*24:02 (protein)
# TCR alpha: QKEVEQDPGPLSVPEGAIVSLNCTYSNSAFQYFMWYRQYSRKGPELLMYTYSSGNKEDGRFTAQVDKSSKYISLFIRDSQPSDSATYLCAILQGAQKLVFGQGTRLTINPNIQNPDPAVYQLRDSKSSDKSVCLFTDFDSQTNVSQSKDSDVYITDKTVLDMRSMDFKSNSAVAWSNKSDFACANAFNNSIIPEDTFFPSPESSCDVKLVEKSFETDTNLNFQNLSVIGFRILLLKVAGFNLLMTLRLWSS
# TCR beta: GITQSPKYLFRKEGQNVTLSCEQNLNHDAMYWYRQDPGQGLRLIYYSQIVNDFQKGDIAEGYSVSREKKESFPLTVTSAQKNPTAFYLCASSLVSGELFFGEGSRLTVLEDLKNVFPPKVAVFEPSEAEISHTQKATLVCLATGFYPDHVELSWWVNGKEVHSGVSTDPQPLKEQPALNDSRYCLSSRLRVSATFWQNPRNHFRCQVQFYGLSENDEWTQDRAKPVTQIVSAEAWGRADCGFTSESYQQGVLSATILYEILLGKATLYAVLVSALVLMAMVKRKDSRG
# B2: TCR_106: TCR to … / A*02:01 (protein)
# TCR alpha: NSVTQMEGPVTLSEEAFLTINCTYTATGYPSLFWYVQYPGEGLQLLLKATKADDKGSNKGFEATYRKETTSFHLEKGSVQVSDSAVYFCALIGGSNDYKLSFGAGTTVTVRANIQNPDPAVYQLRDSKSSDKSVCLFTDFDSQTNVSQSKDSDVYITDKTVLDMRSMDFKSNSAVAWSNKSDFACANAFNNSIIPEDTFFPSPESSCDVKLVEKSFETDTNLNFQNLSVIGFRILLLKVAGFNLLMTLRLWSS
# TCR beta: EPEVTQTPSHQVTQMGQEVILRCVPISNHLYFYWYRQILGQKVEFLVSFYNNEISEKSEIFDDQFSVERPDGSNFTLKIRSTKLEDSAMYFCAKLVTGAVSGEQFFGPGTRLTVLEDLKNVFPPKVAVFEPSEAEISHTQKATLVCLATGFYPDHVELSWWVNGKEVHSGVSTDPQPLKEQPALNDSRYCLSSRLRVSATFWQNPRNHFRCQVQFYGLSENDEWTQDRAKPVTQIVSAEAWGRADCGFTSESYQQGVLSATILYEILLGKATLYAVLVSALVLMAMVKRKDSRG
# B3: TCR_107: TCR to … / B*07:02 (protein)
# TCR alpha: KQEVTQIPAALSVPEGENLVLNCSFTDSAIYNLQWFRQDPGKGLTSLLLIQSSQREQTSGRLNASLDKSSGRSTLYIAASQPGDSATYLCAVIGGSSNTGKLIFGQGTTLQVKPDIQNPDPAVYQLRDSKSSDKSVCLFTDFDSQTNVSQSKDSDVYITDKTVLDMRSMDFKSNSAVAWSNKSDFACANAFNNSIIPEDTFFPSPESSCDVKLVEKSFETDTNLNFQNLSVIGFRILLLKVAGFNLLMTLRLWSS
# TCR beta: KAGVTQTPRYLIKTRGQQVTLSCSPISGHRSVSWYQQTPGQGLQFLFEYFSETQRNKGNFPGRFSGRQFSNSRSEMNVSTLELGDSALYLCASSLAGAQQAFFGQGTRLTVVEDLNKVFPPEVAVFEPSEAEISHTQKATLVCLATGFFPDHVELSWWVNGKEVHSGVSTDPQPLKEQPALNDSRYCLSSRLRVSATFWQNPRNHFRCQVQFYGLSENDEWTQDRAKPVTQIVSAEAWGRADCGFTSVSYQQGVLSATILYEILLGKATLYAVLVSALVLMAMVKRKDF
# B4: TCR_13: TCR to … / A*24:02 (protein)
# TCR alpha: AQSVAQPEDQVNVAEGNPLTVKCTYSVSGNPYLFWYVQYPNRGLQFLLKYITGDNLVKGSYGFEAEFNKSQTSFHLKKPSALVSDSALYFCAGLGTGRRALTFGSGTRLQVQPNIQNPDPAVYQLRDSKSSDKSVCLFTDFDSQTNVSQSKDSDVYITDKTVLDMRSMDFKSNSAVAWSNKSDFACANAFNNSIIPEDTFFPSPESSCDVKLVEKSFETDTNLNFQNLSVIGFRILLLKVAGFNLLMTLRLWSS
# TCR beta: MGTRLFFYVALCLLWTGHVDAGITQSPRHKVTETGTPVTLRCHQTENHRYMYWYRQDPGHGLRLIHYSYGVKDTDKGEVSDGYSVSRSKTEDFLLTLESATSSQTSVYFCAISERDFQETQYFGPGTRLLVLEDLKNVFPPKVAVFEPSEAEISHTQKATLVCLATGFYPDHVELSWWVNGKEVHSGVSTDPQPLKEQPALNDSRYCLSSRLRVSATFWQNPRNHFRCQVQFYGLSENDEWTQDRAKPVTQIVSAEAWGRADCGFTSESYQQGVLSATILYEILLGKATLYAVLVSALVLMAMVKRKDSRG
# B5: TCR_14: TCR to … / A*02:01 (protein)
# TCR alpha: RKEVEQDPGPFNVPEGATVAFNCTYSNSASQSFFWYRQDCRKEPKLLMSVYSSGNEDGRFTAQLNRASQYISLLIRDSKLSDSATYLCVVTRSQGNLIFGKGTKLSVKPNIQNPDPAVYQLRDSKSSDKSVCLFTDFDSQTNVSQSKDSDVYITDKTVLDMRSMDFKSNSAVAWSNKSDFACANAFNNSIIPEDTFFPSPESSCDVKLVEKSFETDTNLNFQNLSVIGFRILLLKVAGFNLLMTLRLWSS
# TCR beta: DARVTQTPRHKVTEMGQEVTMRCQPILGHNTVFWYRQTMMQGLELLAYFRNRAPLDDSGMPKDRFSAEMPDATLATLKIQPSEPRDSAVYFCASRASGGFNEQFFGPGTRLTVLEDLKNVFPPKVAVFEPSEAEISHTQKATLVCLATGFYPDHVELSWWVNGKEVHSGVSTDPQPLKEQPALNDSRYCLSSRLRVSATFWQNPRNHFRCQVQFYGLSENDEWTQDRAKPVTQIVSAEAWGRADCGFTSESYQQGVLSATILYEILLGKATLYAVLVSALVLMAMVKRKDSRG
# B6: TCR_15: TCR to … / A*02:01 (protein)
# TCR alpha: RKEVEQDPGPFNVPEGATVAFNCTYSNSASQSFFWYRQDCRKEPKLLMSVYSSGNEDGRFTAQLNRASQYISLLIRDSKLSDSATYLCVVNAPSGNTPLVFGKGTRLSVIANIQNPDPAVYQLRDSKSSDKSVCLFTDFDSQTNVSQSKDSDVYITDKTVLDMRSMDFKSNSAVAWSNKSDFACANAFNNSIIPEDTFFPSPESSCDVKLVEKSFETDTNLNFQNLSVIGFRILLLKVAGFNLLMTLRLWSS
# TCR beta: AVVSQHPSWVICKSGTSVKIECRSLDFQATTMFWYRQFPKQSLMLMATSNEGSKATYEQGVEKDKFLINHASLTLSTLTVTSAHPEDSSFYICSARDRQGQNTGELFFGEGSRLTVLEDLKNVFPPKVAVFEPSEAEISHTQKATLVCLATGFYPDHVELSWWVNGKEVHSGVSTDPQPLKEQPALNDSRYCLSSRLRVSATFWQNPRNHFRCQVQFYGLSENDEWTQDRAKPVTQIVSAEAWGRADCGFTSESYQQGVLSATILYEILLGKATLYAVLVSALVLMAMVKRKDSRG
# B7: TCR_19: TCR to … / A*24:02 (protein)
# TCR alpha: B5 TCR alpha with T91N, R92M, S93A, Q94T, G95D, N96K, K101T, K104R, S106Q, K108F
# TCR beta: EPEVTQTPSHQVTQMGQEVILRCVPISNHLYFYWYRQILGQKVEFLVSFYNNEISEKSEIFDDQFSVERPDGSNFTLKIRSTKLEDSAMYFCASGGTNTGELFFGEGSRLTVLEDLKNVFPPKVAVFEPSEAEISHTQKATLVCLATGFYPDHVELSWWVNGKEVHSGVSTDPQPLKEQPALNDSRYCLSSRLRVSATFWQNPRNHFRCQVQFYGLSENDEWTQDRAKPVTQIVSAEAWGRADCGFTSESYQQGVLSATILYEILLGKATLYAVLVSALVLMAMVKRKDSRG
# B8: TCR_20: TCR to … / A*02:01 (protein)
# TCR alpha: RKEVEQDPGPFNVPEGATVAFNCTYSNSASQSFFWYRQDCRKEPKLLMSVYSSGNEDGRFTAQLNRASQYISLLIRDSKLSDSATYLCVVNPTGTASKLTFGTGTRLQVTLDIQNPDPAVYQLRDSKSSDKSVCLFTDFDSQTNVSQSKDSDVYITDKTVLDMRSMDFKSNSAVAWSNKSDFACANAFNNSIIPEDTFFPSPESSCDVKLVEKSFETDTNLNFQNLSVIGFRILLLKVAGFNLLMTLRLWSS
# TCR beta: DSGVTQTPKHLITATGQRVTLRCSPRSGDLSVYWYQQSLDQGLQFLIQYYNGEERAKGNILERFSAQQFPDLHSELNLSSLELGDSALYFCASSVAGGLYEQFFGPGTRLTVLEDLKNVFPPKVAVFEPSEAEISHTQKATLVCLATGFYPDHVELSWWVNGKEVHSGVSTDPQPLKEQPALNDSRYCLSSRLRVSATFWQNPRNHFRCQVQFYGLSENDEWTQDRAKPVTQIVSAEAWGRADCGFTSESYQQGVLSATILYEILLGKATLYAVLVSALVLMAMVKRKDSRG
# B9: TCR_23: TCR to … / A*24:02 (protein)
# TCR alpha: AQSVTQLDSHVSVSEGTPVLLRCNYSSSYSPSLFWYVQHPNKGLQLLLKYTSAATLVKGINGFEAEFKKSETSFHLTKPSAHMSDAAEYFCVVTGAGSYQLTFGKGTKLSVIPNIQNPDPAVYQLRDSKSSDKSVCLFTDFDSQTNVSQSKDSDVYITDKTVLDMRSMDFKSNSAVAWSNKSDFACANAFNNSIIPEDTFFPSPESSCDVKLVEKSFETDTNLNFQNLSVIGFRILLLKVAGFNLLMTLRLWSS
# TCR beta: DADVTQTPRNRITKTGKRIMLECSQTKGHDRMYWYRQDPGLGLRLIYYSFDVKDINKGEISDGYSVSRQAQAKFSLSLESAIPNQTALYFCATSDDSEKLFFGSGTQLSVLEDLNKVFPPEVAVFEPSEAEISHTQKATLVCLATGFFPDHVELSWWVNGKEVHSGVSTDPQPLKEQPALNDSRYCLSSRLRVSATFWQNPRNHFRCQVQFYGLSENDEWTQDRAKPVTQIVSAEAWGRADCGFTSVSYQQGVLSATILYEILLGKATLYAVLVSALVLMAMVKRKDF
# B10: TCR_25: TCR to … / A*01:01 (protein)
# TCR alpha: RKEVEQDPGPFNVPEGATVAFNCTYSNSASQSFFWYRQDCRKEPKLLMSVYSSGNEDGRFTAQLNRASQYISLLIRDSKLSDSATYLCVVNKEDRLMFGDGTQLVVKPNIQNPDPAVYQLRDSKSSDKSVCLFTDFDSQTNVSQSKDSDVYITDKTVLDMRSMDFKSNSAVAWSNKSDFACANAFNNSIIPEDTFFPSPESSCDVKLVEKSFETDTNLNFQNLSVIGFRILLLKVAGFNLLMTLRLWSS
# TCR beta: SAVISQKPSRDICQRGTSLTIQCQVDSQVTMMFWYRQQPGQSLTLIATANQGSEATYESGFVIDKFPISRPNLTFSTLTVSNMSPEDSSIYLCSVDRDRNTGELFFGEGSRLTVLEDLKNVFPPKVAVFEPSEAEISHTQKATLVCLATGFYPDHVELSWWVNGKEVHSGVSTDPQPLKEQPALNDSRYCLSSRLRVSATFWQNPRNHFRCQVQFYGLSENDEWTQDRAKPVTQIVSAEAWGRADCGFTSESYQQGVLSATILYEILLGKATLYAVLVSALVLMAMVKRKDSRG
# System: CD8+ T cells
# Type: cell-based, human
# Conditions: cells of the TCR clonotype specific for the epitope / HLA class I of the same line
row,Molecule,No. of Cells
1,B1,2
2,B2,2
3,B3,2
4,B4,9
5,B5,9
6,B6,9
7,B7,7
8,B8,7
9,B9,6
10,B10,5
